Earlier results on one compound are cited in patent US20160374967A1, “ORGANIC THIOPHOSPHATE ANTIRETROVIRAL AGENTS” (The Government of the U.S.A., as Represented by the …, priority 2006, published 2016).

Where two headings read alike, the source gives them in different places.

For this series the following is noted: mice, cited from earlier work.

Consider `CNCCCNCCSP(=O)(O)O`, for which the “maximally tolerated dose (MTD)” value (i.p.) is recorded as 893 mg/kg BW and the “maximally tolerated dose (MTD)” value (p.o.) is recorded as 1488 mg/kg BW.
